Data on 2 sequences can be found in publication PMC5055493, “The PilZ domain of MrkH represents a novel DNA binding motif” (Protein & Cell, 2016).

Series [1] addresses T1, MrkH (tag removed) (Klebsiella pneumoniae) (UniProt G3FT00).
T1 sequence: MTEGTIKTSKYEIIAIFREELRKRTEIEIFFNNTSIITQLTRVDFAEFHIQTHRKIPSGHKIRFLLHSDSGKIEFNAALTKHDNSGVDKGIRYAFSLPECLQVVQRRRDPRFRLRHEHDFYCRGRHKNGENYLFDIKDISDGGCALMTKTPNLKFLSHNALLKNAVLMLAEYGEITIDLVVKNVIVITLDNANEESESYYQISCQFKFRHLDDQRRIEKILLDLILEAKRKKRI
Nature of the series: fluorescence polarization. To be noted: c-di-GMP (DNA fragment not explicit, 80 bp from context); FP: 10 nM FAM-DNA, 25 C, buffer not fully given. Fig. 2G Kd values (High, 10.3, High, 7.5, 24.3, 10.6, 12.7); recombinant protein; label: 5'-FAM.

In series [2] the target is T2, MBP-MrkH (Klebsiella pneumoniae) (UniProt G3FT00).
T2 sequence: T1 sequence
Nature of the series: EMSA. To be noted: EMSA: 50 mM Tris pH 8.0, 100 mM NaCl, 5 mM MgCl2, 20 ul, 100 min on ice; recombinant protein; protein details: N-terminal MBP. (In general: A gel shift assay detects complexes by their altered migration in electrophoresis.)

Series [3] has as its target T3, MBP-MrkH-PilZ domain (Klebsiella pneumoniae) (UniProt G3FT00).
T3 sequence: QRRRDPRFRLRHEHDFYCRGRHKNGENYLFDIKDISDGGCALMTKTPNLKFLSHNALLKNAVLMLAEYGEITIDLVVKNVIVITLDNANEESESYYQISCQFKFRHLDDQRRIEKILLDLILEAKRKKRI
Nature of the series: EMSA. Particulars: EMSA: 50 mM Tris pH 8.0, 100 mM NaCl, 5 mM MgCl2, 20 ul, 100 min on ice; recombinant protein; residues 105-234; protein details: N-terminal MBP.

Series [4] deals with MrkH-PilZ domain (no MBP) (Klebsiella pneumoniae) (UniProt G3FT00). Put plainly: EMSA. To be noted: EMSA: 50 mM Tris pH 8.0, 100 mM NaCl, 5 mM MgCl2, 20 ul, 100 min on ice; recombinant protein; residues 105-234; protein details: MBP absent.

For some of these results: Construct, isoform or probe ends are uncertain for at least one entry.

Turning to “GCTGCGCTGTAAACAACCACCCTCGCGTTTTCATCTATCAATGGCTGTTTATTAATAGTCGATGGTTATCTGTTATATAA (double strand) [PmrkA -117 to -37 (FAM)]”, the Kd in series [1] came to 2630 nM.

As for “GCTGCGCTGTAAACAACCACCCTCGCGTTTTCATCTATCAATGGCTGTTTATTAATAGTCGATGGTTATCTGTTATATAACTTAATGAAACGTGAACAAATGTATATTTGTCGGCGAATAAATAGCATTCTTTGACGCCGATAGCACCAGCGAACTTATATTTTTAGGTTCGTTACCTGACGCCTTAAATATTGCGGCTCCCGGTCAGTCGAAGATTCTATTAGCAGTGGCATAAATCAGCATCGCCTGATGTTTCTGGTTCTATGCGAATTCACAGTGTGCT (double strand) [mrkA promoter 288 bp (EMSA, unlabeled)]”, the binding result in series [2], in series [3] and in series [4] was “binds” in each case.

One may read the Kd as the concentration at which binding is half-saturated.
